Results of unrelated studies side by side (data: NIAID ChemDB).

Shared fields: enzyme or target tests; organism: HIV-1; protein: Reverse transcriptase; read-out: inhibition

Inhibition is in % at the dose shown (toxicity tests: loss of growth or viability).

smiles | read by | dose | value
N#CC1C=Cc2ccccc2N1C(=O)c1cccnc1 | nucleotide incorporation | 50 µM | ≤30%
CCCN1C(=O)c2cc(Cl)nnc2N(CCC)c2ccccc21 |  | 33 µM | 25%
CCSC(=O)N1c2ccccc2C=CC1C#N | nucleotide incorporation | 50 µM | ≤30%
CCCN1C(=O)c2ccnnc2N(CC)c2ccc(C)cc21 |  | 33 µM | 32%
CCN1C(=O)c2ccnnc2Oc2c(C)cc(C)cc21 | ELISA | 33 µM | 38%
O=C(NCCc1ccccc1)Nc1cnccn1 | nucleotide incorporation | 0.1 µg/mL | 1%
C=CCN1C(=O)c2cc(Cl)nnc2N(C2CC2)c2ccccc21 |  | 33 µM | 27%
C=CCN1C(=O)c2ccnnc2Oc2ccc(OC)cc21 | ELISA | 330 µM | 59%
CCCN1C(=O)c2cc(Cl)nnc2N(CCC)c2ccc(C)cc21 |  | 330 µM | 6%
Cc1ccc2c(c1)NC(=O)c1cc(Cl)nnc1O2 | ELISA | 33 µM | 8%
N#CC1C=Cc2cc([N+](=O)[O-])ccc2N1C(=O)OCCCl | nucleotide incorporation | 50 µM | ≤30%
COc1ccc2c(c1)N(CC(C)C)C(=O)c1cc(Cl)nnc1O2 | ELISA | 330 µM | 33%
N#CC1C=Cc2ccccc2N1C(=O)Oc1ccccc1 | nucleotide incorporation | 50 µM | 48.7%
CCN1C(=O)c2ccnnc2Oc2ccc(OC)cc21 | ELISA | 330 µM | 56%
CC(C)(C)c1csc(NC(=O)NCCc2ccccc2)n1 | nucleotide incorporation | 10 µg/mL | 15%
CCN1c2ccc(C)cc2N(C)C(=O)c2cc(Cl)nnc21 |  | 330 µM | 55%

2 of the rows above, restated:

| smiles | read by | dose | value |
|---|---|---|---|
| Cc1ccc2c(c1)NC(=O)c1cc(Cl)nnc1O2 | ELISA | 33 µM | 8% |
| CCN1C(=O)c2ccnnc2Oc2ccc(OC)cc21 | ELISA | 330 µM | 56% |

Blank or dashed fields: not listed here. Rows are shuffled and stem from different studies.